PubChem BioAssay AID504761 | Drosophila RNAi Screening Center | 2011

- Test: 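Fly genes whose silencing reduces dengue virus type 2 infection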 (primary screen)
- System: D.Mel-2 cells from Drosophila
- Reagents: long dsRNA against Drosophila genes
- Treatment: infection with dengue virus type 2; dose and infection time not stated
- Detection: 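Cells stained for dengue envelope protein and imaged; percent of infected cells per well on duplicate plates, ranked by infection, with stained nuclei counted for cell number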
- Direction: infection score: higher = more virus-infected cells; cell count: higher = more cells in the well
- Rule for the call: 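Very low infection ranking in both replicate wells (chance probability at most 0.065), then a retest showing infection dropped 1.5-fold or more at p below 0.05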
- Calls: active = confirmed: knock-down lowers infection; inactive = not picked or not confirmed
The screen tested about 22,000 reagents; shown is a random part of those that have a named target and a result. Of all reagents, 116 (0.52%) are marked active. 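Calls depend on retest data that are not deposited; infection was ranked per plate without normalising between plates; the unit of the infection score is not given.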 The raw values are shown without normalisation. A number with no mark means an inactive call. Names joined by + are all predicted targets of the reagent. Not stated in the record: the amount of reagent, the time to read-out.

| predicted target | amplicon | infection score, replicate 1 | infection score, replicate 2 | cell count, replicate 1 | cell count, replicate 2 |
| --- | --- | --- | --- | --- | --- |
| CG31010 | DRSC14006 | 1.07 | 0.98 | 6078 | 6329 |
| Elp1 | DRSC14250 | 13.5 | 12.6 | 5871 | 5926 |
| CG12640 | DRSC17847 | 10.7 | 6.02 | 3176 | 3620 |
| CG12640 | DRSC26324 | 3.43 | 2.8 | 5831 | 5640 |
| CG31953 (retired record) + gkt | DRSC00709 | 3.64 | 6.09 | 6370 | 6373 |
| CG8298 | DRSC07138 | 9.83 | 11.2 | 6671 | 6251 |
| Ir20a | DRSC20506 | 3.9 | 0.43 | 6633 | 6709 |
| CstF50 | DRSC15434 | 2.94 | 1.3 | 5375 | 6225 |
| Inos | DRSC07655 | 3.71 | 9.99 | 5986 | 6727 |
| Inos | DRSC27019 | 16.5 | 13.4 | 6428 | 6188 |
| ksr | DRSC12379 | 11.9 | 15.2 | 6207 | 6658 |
| CG32163 | DRSC09442 | 1.01 | 4.18 | 6063 | 6717 |
| CG32163 | DRSC28736 | 28.7 | 21.1 | 4888 | 4548 |
| Mpv17 | DRSC17198 | 2.89 | 1.72 | 6682 | 6289 |
| CG6052 | DRSC10574 | 2.63 | 0.87 | 6228 | 6293 |
| Sec24AB | DRSC06478 | 16.6 | 16.3 | 4849 | 5641 |
| Sec24AB | DRSC25940 | 5 | 10.2 | 6479 | 6286 |
| Cog3 | DRSC00585 | 2.25 | 0.5 | 6316 | 6547 |
| CG6415 | DRSC02954 | 35.5 | 8.09 | 5350 | 5602 |
| CG6415 | DRSC29833 | 21 | 6.3 | 6118 | 6395 |
| orb2 | DRSC10540 | 6.15 | 13.8 | 6143 | 5696 |
| orb2 | DRSC10541 | 1.94 | 2.43 | 6766 | 6621 |
| orb2 | DRSC10542 | 5.79 | 9.45 | 6457 | 6401 |
| orb2 | DRSC25697 | 2.84 | 1.17 | 6410 | 6231 |
| Hexo2 | DRSC18671 | 36.8 | 15.7 | 5962 | 2152 |
| CG13083 | DRSC02187 | 9.27 | 1.36 | 5362 | 6242 |
| CG13083 | DRSC28424 | 6.85 | 16.5 | 3080 | 5225 |
| kel | DRSC03554 | 5.17 | 13.8 | 1160 | 4155 |
| RpL21 | DRSC03704 | 4.33 | 4.08 | 1225 | 1496 |
| CG1791 | DRSC18141 | 3.81 | 2.89 | 6685 | 6748 |
| CG1791 | DRSC29301 | – | 10.8 | 354 | 4665 |
| Pisd | DRSC15935 | 4.05 | 6.74 | 6371 | 6111 |
| CG14088 | DRSC10092 | 5.07 | 4.56 | 5900 | 6119 |
| Syx16 | DRSC20507 | 0.74 | 1.83 | 6934 | 6543 |
| Syx16 | DRSC27163 | 9.31 | 15.3 | 6971 | 6463 |
| CG7882 | DRSC04899 | 8.6 | 8.16 | 7024 | 6800 |
| Or85b | DRSC16765 | 7.86 | 12.5 | 6006 | 6372 |
| stan | DRSC05234 | 2.09 | 2.52 | 5414 | 5192 |
| stan | DRSC07697 | 13.4 | 9.16 | 6290 | 6979 |
| ringer | DRSC10455 | 1.42 | 6.42 | 5846 | 5855 |
| CG30270 | DRSC22890 | 1.4 | 2.55 | 5941 | 6462 |
| Golgin84 | DRSC15269 | 8.63 | 18 | 6963 | 5505 |
| nAChRbeta1 | DRSC08097 | 0.89 | 0.38 | 6648 | 6372 |
| nAChRbeta1 | DRSC08728 | 8.95 | 8.5 | 2369 | 2942 |
| CG6216 | DRSC10606 | 4.71 | 1.4 | 5454 | 6433 |
| CG6216 | DRSC28352 | 17.1 | 16.5 | 6347 | 3614 |
| CG15423 | DRSC00437 | 5.29 | 1.7 | 6501 | 6873 |
| CG15423 | DRSC29587 | – | 1.92 | 348 | 832 |
| MSBP | DRSC20146 | 4.95 | 4.71 | 6198 | 7064 |
| MFS14 | DRSC06524 | 3.68 | 3.47 | 6363 | 6965 |
| MFS14 | DRSC29787 | 4.42 | 9.83 | 5685 | 5486 |
| Fcp3C | DRSC18665 | 0.93 | 3.12 | 6465 | 6191 |
| IPIP | DRSC02164 | 5.49 | 6.58 | 6172 | 6432 |
| IPIP | DRSC27480 | 24.9 | 16.7 | 5556 | 3077 |
| CG15695 | DRSC15117 | 0.84 | 9.51 | 6884 | 6150 |
| CG15695 | DRSC29582 | 0.68 | 9.64 | 438 | 1536 |
| Prosbeta5R2 | DRSC01617 | 0.28 | 0.33 | 6444 | 5989 |
| Prosbeta5R2 | DRSC29767 | 25.4 | 26 | 6040 | 5861 |

4 entries from above, ordered by “infection score, replicate 1”, low to high:
| predicted target | amplicon | infection score, replicate 1 | infection score, replicate 2 | cell count, replicate 1 | cell count, replicate 2 |
| --- | --- | --- | --- | --- | --- |
| orb2 | DRSC10541 | 1.94 | 2.43 | 6766 | 6621 |
| orb2 | DRSC10540 | 6.15 | 13.8 | 6143 | 5696 |
| CG6415 | DRSC29833 | 21 | 6.3 | 6118 | 6395 |
| CG6415 | DRSC02954 | 35.5 | 8.09 | 5350 | 5602 |
